Measurements reported in PubChem BioAssay AID1259414 (Drosophila RNAi Screening Center, 2018).
In all, the deposit lists about 24,000 reagents; shown is a random part of those that have a named target and a result. Over the whole deposit, about 1,210 (5%) got an active call. 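Inactive calls also include excluded dsRNAs with several or no targets, genes unexpressed in JW18, and well A1, regardless of score.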 The numbers tell different reagents against one gene apart.

Aim: 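Genome-wide screen for host control of endosymbiont load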 (primary screen)
System: Drosophila JW18 cells infected with Wolbachia
Reagents: long dsRNA against Drosophila genes, 0.25 µg dsRNA per well of a 384-well plate
Duration: 5 days
Conditions: cells persistently infected with Wolbachia before knock-down; no added drug
Measured: 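Automated imaging of bacterial rRNA staining divided by host cell count, reported as plate-normalised robust z-score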
Reading the numbers: Wolbachia per cell robust z: higher = more Wolbachia per host cell than the plate typical
Rule for the call: 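Active if absolute robust z reaches 1.5 in two or more of three replicates, leaving out multi- or no-target dsRNAs, genes unexpressed in JW18 and A1 wells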

no.	gene	reagent no.	Wolbachia per cell robust z, rep 1	Wolbachia per cell robust z, rep 2	Wolbachia per cell robust z, rep 3	outcome
1	CG11791	1	-0.357	-1.01	0.37	inactive
2	CG11791	2	-1.96	0.598	1.02	inactive
3	Spred	1	-0.355	-5.43	-1.33	inactive
4	Spred	2	-5.25	-6.94	-5.43	inactive
5	Or10a	1	0.361	-1.18	-0.868	inactive
6	Or10a	2	-7.76	-1.28	0.426	inactive
7	CG15333	1	0.0775	0.309	-0.0989	inactive
8	CG15333	2	0.386	-0.0238	-0.376	inactive
9	CG15082	1	-2.52	-0.197	-2.91	active
10	CG15082	2	-0.577	-0.78	-0.742	inactive
11	CG10680	1	-3.69	-0.69	-0.796	inactive
12	CG13996	1	-1.17	-0.34	-0.534	inactive
13	CG3253	1	0.0482	-0.62	-0.117	inactive
14	CG3253	2	1.44	0.919	0.495	inactive
15	CG17019	1	-3.97	0.447	0.605	inactive
16	p130CAS	1	-0.921	1.37	0.694	inactive
17	p130CAS	2	0.489	0.145	-0.237	inactive
18	p130CAS	3	1.35	2.04	1.24	inactive
19	Iml1	1	-0.769	-1.41	-2.02	inactive
20	CG33710	1	-0.174	-1.23	-0.553	inactive
21	dmrt11E	1	0.0366	0.737	-0.481	inactive
22	dmrt11E	2	0.3	-1.26	0.494	inactive
23	CG12288	1	-0.0125	-0.712	-0.0721	inactive
24	Mal-A8	1	0.582	-0.946	0.485	inactive
25	Tsen2	1	0.236	-0.177	-1.97	inactive
26	Tsen2	2	0.0201	-0.584	-0.522	inactive
27	Acp24A4	1	-1.39	-0.908	-0.943	inactive
28	CG34288	1	-0.644	-0.839	0.502	inactive
29	CG34163	1	0.324	-0.516	-4.05	inactive
30	mute	1	0.0657	0.868	-0.497	inactive
31	mute	2	-0.295	-0.443	0.0983	inactive
32	mute	3	0.16	-2.79	-2.4	active
33	Myo61F	1	-1.51	-1.21	-0.485	inactive
34	Myo61F	2	-2.01	-2.92	-0.407	active
35	CG4617	1	-1.01	0.133	-5.1	inactive
36	CG4617	2	-1.73	-6.66	-3.19	active
37	NT1	1	-9.05	-0.704	-5.79	inactive
38	NT1	2	-2.01	-2.21	-0.872	inactive
39	CG14069	1	-5.77	-2.79	-0.471	inactive
40	HP1b	1	0.181	0.556	0.136	inactive
41	HP1b	2	-0.327	0.0612	0.307	inactive
42	Glt	1	-6.83	1.7	-0.811	inactive
43	Glt	2	-1.37	-0.112	-0.324	inactive
44	Wnk	1	-0.898	-0.943	0.22	inactive
45	CG17109	1	-0.701	-0.138	1.01	inactive
46	CG17109	2	-2.82	-0.824	-0.0864	inactive

In a second layout: results already given.
gene,reagent no.,"Wolbachia per cell robust z, rep 1","Wolbachia per cell robust z, rep 2","Wolbachia per cell robust z, rep 3",outcome
CG17019,1,-3.97,0.447,0.605,inactive
p130CAS,1,-0.921,1.37,0.694,inactive
p130CAS,2,0.489,0.145,-0.237,inactive
p130CAS,3,1.35,2.04,1.24,inactive
Iml1,1,-0.769,-1.41,-2.02,inactive
CG33710,1,-0.174,-1.23,-0.553,inactive
dmrt11E,1,0.0366,0.737,-0.481,inactive
